Experimental data published in the supplement of paper PMC9931576.
Human monoclonal antibodies against the spike receptor-binding domain (heavy:light variable regions). IC50 against pseudoviruses bearing the spike of naturally observed variants; lower = stronger; >10 µg/ml means not reached at the top dose. No active / inactive call. The stated detection limit is 0.0005 µg/ml; values near or below 0.001 µg/ml lie at the floor of the assay.

Experiments:
Test in all cases: pseudovirus neutralization IC50; higher = weaker neutralization
[1] = biological target: SARS-CoV-2 Omicron BA.1 spike pseudovirus
Experimental: (§1)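 Single-round VSV luciferase pseudovirus mixed with antibody dilutions for 1 h and put on Huh-7 cells for about a day; IC50 from the dose curve.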

[2] = biological target: SARS-CoV-2 Omicron BA.2 spike pseudovirus
Experimental: as §1

[3] = biological target: SARS-CoV-2 Omicron BA.2.75 spike pseudovirus
Experimental: as §1

[4] = biological target: SARS-CoV-2 Omicron BA.5 spike pseudovirus
Experimental: as §1

[5] = biological target: SARS-CoV-2 Omicron BQ.1.1 spike pseudovirus
Experimental: as §1

[6] = biological target: SARS-CoV-2 Omicron XBB spike pseudovirus
Experimental: as §1

[7] = biological target: SARS-CoV-2 early D614G spike pseudovirus
Experimental: as §1

Row | Binder | pseudovirus neutralization IC50 [1] [µg/mL] | pseudovirus neutralization IC50 [2] [µg/mL] | pseudovirus neutralization IC50 [3] [µg/mL] | pseudovirus neutralization IC50 [4] [µg/mL] | pseudovirus neutralization IC50 [5] [µg/mL] | pseudovirus neutralization IC50 [6] [µg/mL] | pseudovirus neutralization IC50 [7] [µg/mL]
1 | BD55-6561 (protein) chain 1: VQLVQSGSELKKPGASVKISCKASGYTFTDYSMNWVRQAPGRGLEWMGWINTNTGNPAYAQAFAGRCVLSLDTSVNTAYLHISRLEADDTALYYCARDRDVLRGAMGGFAPWGQGTLVTVSS chain 2: SYVLTQPPSVSVAPGKTARITCGGNEIGSKSVHWYQQKPGQAPVLVIYYDSDRPSGIPERFSGSNSGNTATLTISRVDAGDEADYFCQVWDSDINQVLFGGGTKLTVL | > 10 | > 10 | > 10 | > 10 | > 10 | > 10 | > 10
2 | BD55-6589 (protein) chain 1: EVQLVQSGPEVKKPGESLKISCTGFGDTFTNYWIAWVRQTPGKGLEWMGVIYPGDSDTRYSPSFQGQVIISADKSISTAYLQWSSLKASDTAMYYCGRLKHGYLYGIVDYWGQGTLVTVSS chain 2: DIVMTQSPDSLAVSLGERATIKCKSSQSVLYSSNNKNYLAWYQQKPGQPPKLLIYWASTRESGVPDRFSGSGSGTDFTLTISSLQAEDVAVYYCQQYSSTSCTFGQGTKLEIK | > 10 | > 10 | > 10 | > 10 | > 10 | > 10 | > 10
3 | BD55-6591 (protein) chain 1: EVQLVQSGAEVKKPGESLKISCKASGYRFSSYWIAWVRQVPGKGPEWMGVIYPGDSDTRYSPSFQGQVTFSADKSANTAYLQWSSLKASDTAMYYCARHAGALQSIDWQNNGMDVWGQGTTVTVSS chain 2: DIQMTQSPSSLSASVGDRVTITCRASLSIGTYLHWYQQKPGKAPKLLIFAASSLQSGVPSRFSGGGSGTDFTLTISSLQPEDSATYYCQQSYSTPSWTFGQGTKVEIK | > 10 | > 10 | > 10 | > 10 | > 10 | > 10 | > 10
4 | BD55-6583 (protein) chain 1: QVQLVQSGAEVKKPGASVKVSCKASGYTFTGHDINWVRQATGQGLEWMGWVSPNSGDTGYAHNFQGRVSMTRDTSMNTAYLELNSLRSEDTAVYYCAIYSGSGKFYPDYYYGFDVWGPGTPVTVSS chain 2: DIQMTQSPSSLSASVGDRVTITCRTRQSISDHLNWYQQRPGKAPKLLIYAASSLKSGVPSRFSGSGSGTDFTLTINSLQPEDFATYYCQQSYSTPPTFGQGTKLEIK | > 10 | > 10 | > 10 | > 10 | > 10 | > 10 | > 10
5 | BD55-6578 (protein) chain 1: EVHLAESGGGLVMPGGSLRLSCAASGFTFSTYSMNWVRQAPGKGLEWVSGISSSGSLIFYADSVKGRFTISRDNAKNSLFLQMNSLRDEDTAVYYCARESHITMDTTFDSWGQGTPVTVSS chain 2: DIQMTQSPSSLSASVGDRVIITCRASQSLNRHLNWYQQKPGKAPKLLIYSASSLQTGVPLRFSGSGSGTDFTLTISSLQPEDFATYYCQQSYSSPPGPGTFGQGTRLEIK | > 10 | > 10 | > 10 | > 10 | > 10 | > 10 | 4.66
6 | BD55-6575 (protein) chain 1: EVQLVESGGNLVQPGGSLRLSCGVSGFTFSSYAMHWVRQAPGKALEYVSSITSNGGGTFYADSVKGRFTISRDTFKNTVYLQMGSLRVEDTAVYYCAREASTWDVVLDYWGQGTLVTVSS chain 2: DIQMTQSPSSLSASVGDRVTITCRAGQSISTYLNWYQQKPGKAPKLLIYAASSLQSGVPSRFSGSGSGTDFTLTISSLQPEDFATYYCQQSYITPMYTFGQGTKLEIK | > 10 | > 10 | > 10 | > 10 | > 10 | > 10 | > 10
